Measured values reported in PMC4191427, “Molecular mechanisms of two-component system RhpRS regulating type III secretion system in Pseudomonas syringae” (Nucleic Acids Research, 2014).

tested on: RhpRpsph (Pseudomonas syringae pv. phaseolicola); assay: EMSA; conditions: 10 mM Tris-HCl pH 7.4, 50 mM KCl, 5 mM MgCl2, 10% glycerol, 3 ug/ml sheared salmon sperm DNA, room temperature; recombinant protein; residues 1-249; protein details: His-tag (HisTrap purified, LIC vector pMCSG19); label: 32P 5' end; probe letters rebuilt from the primers and the genome

Row | Sequence | binding result
1 | ATCTGGTCAACGATCCGAAGCTCAATGCACCTGAATGTCTGACGCCATTGAGTTAGACGGGCAGGGATAAGACCGATGAATCAGACAAATCCGATATCCGCCTTGAAGCGCATCTGATACAAACTGGACATACGTGCGGGAACCATCCACCTCTCTCAAAGACCAAGATGCCAGTTGGCCGGCATCTGGCGCAGAGATCTGCCCCGCAATGGCCGTTTCACAAACAAGGAGATTCACCATGCGTCAGTCATTTGCCCTCTGTGCCTTGAGCGCTGCGTTGCTGCTCGGCGGGTGTCAGGCAGTCAATACCACCA (double strand) [PSPPH1035] | binds
2 | CTTCCCTACGTGTCCCTGTTATGTCTTGTTGCGCGTCCTGCGCTACGTCCATGAACAAAGATTAACTTTGGATCCCTTTCTTGGGAAGAGGTCAATTGGCACCACGCAGTGTAAGCAAATGCTTACAAGGCTTTTGCAGGTCAGAATTGTGACGCCTTCAACAGGTACAGCGAATCGCTGCCCGCGCGCACCGAGGCGTCCAGCGAGTGAATACGCGGCAGCAGACGTGCGAAGTAGAAGCGTGCAGTACCCATCTTGCTTGCGTAGAACTCCTCCTGCTGCTCTTTACCGAGTGCTGCCTTGGCCATCATGGCCCACATGTAGGCATACGCCGTGTAACCGAACAGATGCAGATATTCCACAGAGGCTGCGCCGATTTCATTGGGATTACCGCGCGAGCGGTCCAGCACCCAGCCAGTCAGCTCATCCAGCATG (double strand) [PSPPH4712] | binds
3 | TGCCGGCATAGAGCAGATTGCAGCCCGCCGCCAAAGCATCGTGTCCGGTCAGAAGTCCGTGGAAGCCAACCAGGTTGGCGTAGATGTGGGGTCGCGCAATATCGCTGACGTGCTCAATGCCCAGCGTCAGTTGTACGCGGCCGTTCGCGATTACAACGATGCTCGCTATGACTACATCCTCGACAACCTCAAGCTCAAACAGGCTGCCGGCACGCTGAGCCCTGACGATCTTAGAGCACTGGCGGCCTATCTAAAGCAGGACTACGACCCGGCCAGGGACTTTCTACCGCCGGGTGTTTAGATGAATTTTTAGATTGCATAGCTGAATAGTTTCAATCCGGATACATTAAGTTTTAAAAGTGTGATGTGCGTCACAGATGGCTTGTTGCCATTATTTGGCAAAATGATCAGATTTGCCTACCAGTGGCATGTCGGCAGGGAAGCGCTATGAATGATTCGGAAATGGGCGCTCAGACGCCTGACAATGTCCCTCGCCTCGAC (double strand) [PSPPH0813] | binds
4 | AGCAGCAGAGAGTTGAATTGCAGCATTTTCTTTGACTTTCGTCATGACACTTCCTTGTTTGCTGATTAACAGGTTAGGTACGGCGGGACTCCCCCTGTAGCGAGAGAGTCCAGTCACTCGCCTTGTGGTGCGTAATGCATTGAAGCGTAACAAAGCTGACACATTTAGAAATCTTGTGTCCAGCTCTGTTCCATGATGTCAATTAGCCCAAAACGAGGAAGTGCCCACAGGCCTTGGGGAATCGTCCGATATTATTTTTTGTGATGATCAAACGCTGATAAGTGCTTGAGCAGACGAGGACAATCT (double strand) [PSPPH3076] | binds
5 | ATGGATTCAGCCAAGGCTCTGGCCAGCGTGCGTGTCAGCCTTGGCCGCTACACCACGCAGGCAGACGTCGAGCGTGCCATTGAGATATTCAGCAAGGCGCTCAGCGCACCTGCTGCGTTCTGGTAATTTGCAACGCCTCTCAAGCCGCCCTTTCAGCGGGCGGCTTGCTGCCATTTCTTCCCTTCCCGCCAAAGCTGCTGCCTTGTAGCTCGCCACTTGCAGCGTGCCGCTAAATAAAATGTACCCCTCCAGATACAAAAAGACACAAATTGGCACAGTTCTTTCAAATGGAACGGTCGTGCCATAAACCATTGGTGCACGCTGCATTCAAGGGGTGCCTACACGCACCAAAGTGCAGTTAACGGATGCCAGAGCGTCCACAAACAGTGCAGGAGGGCAGACCACAAGTCTTTCTCCTCGCCAGGAAAGGAATCTAGCCGTGCTCTATCAGTCTTGTGTCAGACCACCGTTACGCTGGCTGCTTACCCCTGAGGCATTGCCTGCCTTGGACGGTGCCTGCCCGGTCGCCTTCGCGTTATCCAGATCTGCATGTTGTTTTTCGACGGCTC (double strand) [PSPPH5053] | binds
6 | TCACACTGACCGGGTAATCCCTGGCATTGCTGGTGCGCAAGGCAGCCAGCACCACTCGACTGATGGCGTCAGCGTCTGCTCTCCGTGCGGGTCGAACCTTGATGTCCATTTTTCGTACCTGGGCAGATAAACCGCACATGAAGAGCACAGTGAAAGCCGGCTTCGTTGATACCGAGCCATGACCGTTTTGCTGATGTGTAACCAAACGACGAATGGCATTCTTTGTAACACTCTGCATACAAATGAGCAGGCCCTTTATCTTATGGGGCTGCGCGACCGATAGCGCTTAAAAAGTAGCCGTCTGCGGCCGATCAACCTGTACCTCGCCTG (double strand) [PSPPH4247] | binds
7 | TGCGAACAACGCTATTTTTGCTACTCGACTCAACATCCGGATTCACTCTCTCCACAGGCAATTGATTAATAACCTGCACAGTCAGACAGCGCGGTGCCGGGGAAGTGGGTAGCGATCTGGTCGCCAACGTGTAAGCGCTACGATACAAAACGCATAACGCCCGGTTGATTTGCAGCGCTGCCGTGCACCCGCACTCTTGCGTAAGTTACTATGTGCGCCGTCGGCGACGGGCCTGCCCTCGCACCCATCGAAACCCACACGGAAACACACCCCTGTGACACTGGAACAGAATTACACCGCCA (double strand) [folE] | binds
8 | CGCATGTAGCACGTGATGTTGACAGAAGTCTGATCAGCATCCGTGATCTGGCCGTACAGAGCAGCGAAGGCACCCGGCAAACACTGATTGCCAGTACCGAACTTTCGCAGTTGGCAGTCAACTTGAATGATCTTGTACTGCGCTTCAAGACATGATGCGAAACGGGATCCATAACTATCATGCATGGCGACAGGGCAGCGGATTCGTCTGCTGCACCTTTTCATAGCGCTAGTGCCATTTCTGGCAAAAAAACAATAACAAAATGCCAGCACTCGACTGCCATTAAAGTTGCATTTCATGTGTTTCATTAACGATACAAATACCTTCTATCAGGTATGATGCGCGCTACTTGAATACGGGAAGTATGAGGTATGCCGTGCAGAATCATTGTGGCCGACGACCACCCGCTGTTTCGTGAGGGCATGCTGCGTACTATCGAGCGGCTGATACCCGAAGCGATTATTGAAGAAGCAGGCAATCTGGATGAAGTACTCACCCTCGCACGCCGGGGTGATGAGGTCGACACACTGGTG (double strand) [PSPPH4241] | binds
9 | GCTTCCCGGTCATTGGTATCGATTATTACTTCACGCATATGCGGCTTACGTCCGTGTTTGACTATCGCTGATATTGTTGTGGCGTGAATTTGTAACAATCACTGGCCAAGGCTCGACTGGCAAGCGCTTGTGTCCTGTGTGATACATAGTTGTAGGTCAATTCGCCATGGCCTGCAATTAGACCGACGTCTGACCTCTGTTTGATTTGATAAATTGACGACTGGACCTGCAAATCCGGATTTCTTTTTCCCGGAAACGCAAAACCCCCGGCAGGCCGGGGGTTTTGTTGACTCGCTGGTGCGATTACTCGTCGAGGAACGAGCGCAGGTGCTCGCTTCTTGTCGGGTGACGCAGCTTGCGCAGTGCCTTGGCTTCTATCTGACGAATCCGCTCGCGGGTAACGTCAAACTGCTTACCGACCTCTTCAAGCGTGTGATCGGTATTCATGTCGATGCCGAAA (double strand) [rpoD] | binds
10 | CTCCGAGCAGCTCTAGCATTTGTACGTCATCTAGGCGATATGAGCGCTGCAAGATTATTTCGCGAGCGCAGGTAAACACCTCCAGCGAAACAACTCCTTGAAATGCGCCGTCGCAGCGAACCCACTTGTCGGGTGGATTGCGACTGATACGTTTGCGCAGCTTGGAGGATGTTTTGTTGTAGACATTGTTGCCAATATATTTCTCGTTGGTCAGCACTTGGTGGACGCTGCCCCTGCTCCAAGGACGGTCGAAGTCGGTGAGCAGGCCATCTGCATTTAGTACGTTGGCAATCTCACGCTCGTTCAGTCC (double strand) [PSPPH0100] | binds

tested on: RhpR; assay: EMSA; conditions: unphosphorylated RhpR; 10 mM Tris-HCl pH 7.4, 50 mM KCl, 5 mM MgCl2, 10% glycerol, 3 ug/ml sheared salmon sperm DNA, room temperature; recombinant protein; protein details: N-terminal His6; label: 32P 5' end; probe letters rebuilt from the primers and the genome

Row | Sequence | binding result
11 | GCTTGCATAGTGCGTCTGTCGCCTGCGTGTGCCGCCGTTGTCTGGCCGCTGTTGAAGATCAACGCTGCCGCTCATGCTACTTCGCCGTGAGGCTCGGCGGTAGGGTGACGCTGGCCGATGTCAGGCGGATGTCGTGAATGTATCGATACGGATACATAGAGATGAGTGAACGAACCACGACGCTTACGCCTTAAAACGAAGATTGTCTAGCTAGCACTTCTACCAGTATCGCGGTGCCCTGATTAAGCCTTAGGTTGCTAGCTAGCATGACGGAAACCCGTGATCTCTCCGGTTTCGGCTGGCTTAAACGTCCGGTGAGCGGTTGCGGTTGCGGTTGCGCCTGTTGCCGCCAGGGCTTGATGGCGGCTGATCGTTATGGAGAACGACAAATGGACTTGCACGAA (double strand) [rhpR promoter EMSA probe] | binds
